{"source": "patent US20070010489A1", "about": "(priority 2002, published 2007)"}
{"tested_on": "mutant HIV-1 with M46I/I47V/I50V mutations (I50V #1)", "details": "fold change"}
{"smiles": "CC(C)CN(CC(O)C(Cc1ccccc1)NC(=O)OC1COC2OCCC12)S(=O)(=O)c1cccc(OCP(=O)(OCc2ccccc2)OCc2ccccc2)c1", "note": "(stereo not shown)", "I50V (#1) fold change": "++ (>10 to ≦30)"}
{"smiles": "COc1ccc(S(=O)(=O)N(CC(C)C)C[C@@H](O)[C@H](Cc2ccc(OCP(=O)(OCc3ccccc3)OCc3ccccc3)cc2)NC(=O)OC2CCOC2)cc1", "note": "(stereo partly shown) [OMe, OBn]", "I50V (#1) fold change": "++ (>10 to ≦30)"}
{"smiles": "CC(C)CN(CC(O)C(Cc1ccccc1)NC(=O)OC1COC2OCCC12)S(=O)(=O)c1ccc(OCP(=O)(OCc2ccccc2)OCc2ccccc2)cc1", "note": "(stereo not shown)", "I50V (#1) fold change": "+++ (>30)"}
{"smiles": "Cc1ccc(C(=O)NC(Cc2ccc(OCP(=O)(OCc3ccccc3)OCc3ccccc3)cc2)C(O)CN(CC(C)C)S(=O)(=O)c2ccc(N)cc2)cc1O", "note": "(stereo not shown)", "I50V (#1) fold change": "+++ (>30)"}
{"smiles": "COc1cccc(S(=O)(=O)N(CC(C)C)CC(O)C(Cc2ccccc2)NC(=O)OC2COC3OCCC23)c1", "note": "(stereo not shown)", "I50V (#1) fold change": "+++ (>30)"}
{"smiles": "CCOP(=O)(COc1ccc(S(=O)(=O)N(CC(C)C)CC(O)C(Cc2ccccc2)NC(=O)OC2COC3OCCC23)cc1)OCC", "note": "(stereo not shown)", "I50V (#1) fold change": "++ (>10 to ≦30)"}
{"smiles": "CC(C)CN(C[C@@H](O)[C@H](Cc1ccc(OCP(=O)(Oc2ccccc2)Oc2ccccc2)cc1)NC(=O)OC1CCOC1)S(=O)(=O)c1ccc(N)cc1", "note": "(stereo partly shown) [NH2, phenol]", "I50V (#1) fold change": "+ (>3 to ≦10)"}
{"smiles": "Cc1ccc(C(=O)NC(Cc2ccc(OCP(=O)(O)O)cc2)C(O)CN(CC(C)C)S(=O)(=O)c2ccc(N)cc2)cc1O", "note": "(stereo not shown)", "I50V (#1) fold change": "++ (>10 to ≦30)"}
{"smiles": "Cc1cccc(C)c1OCC(=O)NC(Cc1ccc(OCP(=O)(OCc2ccccc2)OCc2ccccc2)cc1)C(O)CN(CC(C)C)S(=O)(=O)c1ccc(N)cc1", "note": "(stereo not shown)", "I50V (#1) fold change": "+ (>3 to ≦10)"}
{"smiles": "COc1ccc(S(=O)(=O)N(CC(C)C)C[C@@H](O)[C@H](Cc2ccc(OCP(=O)(O)O)cc2)NC(=O)OC2CCOC2)cc1", "note": "(stereo partly shown) [OMe, OH]", "I50V (#1) fold change": "+++ (>30)"}
{"smiles": "COc1ccc(S(=O)(=O)N(CCN(C)C)CC(O)C(Cc2ccc(O)cc2)NC(=O)OC2COC3OCCC23)cc1", "note": "(stereo not shown)", "I50V (#1) fold change": "− (≦3)"}
{"smiles": "COc1ccc(S(=O)(=O)N(CC(C)C)CC(O)C(Cc2ccc(CO)cc2)NC(=O)OC2COC3OCCC23)cc1", "note": "(stereo not shown)", "I50V (#1) fold change": "− (≦3)"}
{"smiles": "CCOP(=O)(COc1cccc(S(=O)(=O)N(CC(C)C)CC(O)C(Cc2ccccc2)NC(=O)OC2COC3OCCC23)c1)OCC", "note": "(stereo not shown)", "I50V (#1) fold change": "+++ (>30)"}
{"smiles": "CCOP(=O)(COc1ccc(CC(NC(=O)OC2CCOC2)C(O)CN(CC(C)C)S(=O)(=O)c2ccc(OC)cc2)cc1)OCC", "note": "(stereo not shown) [OMe, OEt]", "I50V (#1) fold change": "+++ (>30)"}
{"smiles": "Cc1cccc(C)c1OCC(=O)NC(Cc1ccc(OCP(=O)(O)O)cc1)C(O)CN(CC(C)C)S(=O)(=O)c1ccc(N)cc1", "note": "(stereo not shown)", "I50V (#1) fold change": "++ (>10 to ≦30)"}
{"smiles": "COc1ccc(S(=O)(=O)N(CC(C)C)C[C@@H](O)[C@H](Cc2ccc(OCP(=O)(Oc3ccccc3)Oc3ccccc3)cc2)NC(=O)OC2CCOC2)cc1", "note": "(stereo partly shown) [OMe, phenol]", "I50V (#1) fold change": "+++ (>30)"}
{"smiles": "CC(C)CN(CC(O)C(Cc1ccccc1)NC(=O)OC1COC2OCCC12)S(=O)(=O)c1cccc(OCP(=O)(O)O)c1", "note": "(stereo not shown)", "I50V (#1) fold change": "++ (>10 to ≦30)"}
{"smiles": "CC(C)CN(C[C@@H](O)[C@H](Cc1ccc([N+](=O)[O-])cc1)NC(=O)O[C@H]1CO[C@H]2OCC[C@H]21)S(=O)(=O)c1ccc(OCP(=O)(Oc2ccccc2)Oc2ccccc2)cc1", "note": "[NO2, phenol]", "I50V (#1) fold change": "− (≦3)"}
{"smiles": "COc1ccc(S(=O)(=O)N(CC(C)C)CC(O)C(Cc2ccccc2)NC(=O)OC2COC3OCCC23)cc1OCP(=O)(OCc1ccccc1)OCc1ccccc1", "note": "(stereo not shown)", "I50V (#1) fold change": "+++ (>30)"}
{"tested_on": "mutant HIV-1 with M46I/I47V/I50V mutations (I50V #1)", "details": "fold difference in EC50 mutant vs wild type, class symbols"}
{"smiles": "CCOP(=O)(OCC)c1ccc(CC(NC(=O)OC2COC3OCCC23)C(O)CN(CC(C)C)S(=O)(=O)c2ccc(OC)cc2)cc1", "note": "(stereo not shown) [drawing 1770 R1=OEt R2=OEt]", "I50V (#1) fold change": "+ (>3 to ≦10)"}
{"smiles": "COc1ccc(S(=O)(=O)N(CC(C)C)CC(O)C(Cc2ccc(OCP(=O)(OCc3ccccc3)OCc3ccccc3)cc2)NC(=O)OC2COC3OCCC23)cc1", "note": "(stereo not shown) [drawing 1768 R1=OBn R2=OBn]", "I50V (#1) fold change": "− (≦3)"}
{"smiles": "CCOP(=O)(COc1ccc(CC(NC(=O)OC2COC3OCCC23)C(O)CN(CC(C)C)S(=O)(=O)c2ccc(OC)cc2)cc1)OCC", "note": "(stereo not shown) [drawing 1768 R1=OEt R2=OEt]", "I50V (#1) fold change": "− (≦3)"}
{"smiles": "COc1ccc(S(=O)(=O)N(CC(C)C)CC(O)C(Cc2ccc(OCP(=O)(OC(C)C)OC(C)C)cc2)NC(=O)OC2COC3OCCC23)cc1", "note": "(stereo not shown) [drawing 1768 R1=OiPr R2=OiPr]", "I50V (#1) fold change": "− (≦3)"}
{"smiles": "CCOP(=O)(OCC)c1ccc(CN(C)CC(NC(=O)OC2COC3OCCC23)C(O)CN(CC(C)C)S(=O)(=O)c2ccc(OC)cc2)cc1", "note": "(stereo not shown)", "I50V (#1) fold change": "+++ (>30)"}
{"smiles": "CCOC(=O)C(CC)OP(=O)(COc1ccc(CC(NC(=O)OC2COC3OCCC23)C(O)CN(CC(C)C)S(=O)(=O)c2ccc(OC)cc2)cc1)Oc1ccccc1", "note": "(stereo not shown) [Compound 5a]", "I50V (#1) fold change": "+ (>3 to ≦10)"}
